Assay results as given in patent US10351847B2, “Identification and display of peptide ligands” (OXFORD UNIVERSITY INNOVATION LIMITED, priority 2013, dated 2019).
Ends that are not written are not given here.

Test system: HIV-1 clade C (ES-X1936-C)
Assay: HIV-1 inhibition assay (intracellular p24 in CD4+ cells of PBMC)
Assay type: cell-based
Conditions: CCR5 tropic virus

Sequence: SYSFCPRRQ (also: GS linker and biotinylated lysine, end not given here) [GP3]
- inhibition of replication: exhibited inhibition
